Measurements: article PMC3774798 (PLoS ONE, 2013)

How the values were obtained:
[1] = tested on: Nc1nc2c(ncn2[C@@H]2O[C@@H]3CO[P@](=O)(O)O[C@H]4[C@@H](O)[C@H](n5cnc6c(=O)[nH]c(N)nc65)O[C@@H]4CO[P@](=O)(O)O[C@H]3[C@H]2O)c(=O)[nH]1; assay: purified protein; settings: protein phosphorylated with acetyl phosphate (extent unknown), 10 mM MgCl2, pH 8, 30 °C
[2] = tested on: Nc1nc2c(ncn2[C@@H]2O[C@H](COP(=O)(O)O[C@H]3[C@@H](O)[C@H](n4cnc5c(=O)[nH]c(N)nc54)O[C@@H]3COP(=O)(O)O)[C@@H](O)[C@H]2O)c(=O)[nH]1; assay: purified protein; settings: protein phosphorylated with acetyl phosphate (extent unknown), pH 8, 30 °C, Mg2+ and/or Mn2+

Substance: PA4781 (Pseudomonas aeruginosa PAO1; E314A)
- Km [1]: 6.8 ± 2 µM
- kcat [1]: 0.0006 s⁻¹
- Km [2]: 17 ± 8 µM
- kcat [2]: 2.0±0.3x10^-4 s^-1
